Measured values from several laboratories, pooled; numbers as filed in NIAID ChemDB.

All rows: whole-cell or culture tests; species: HIV-1; cells: MT-4; read-out: EC50

Two numbers with a dash give a range or band.

C=C(C)[C@@H]1CC[C@]2(C(=O)NCCCCCCCCCCC(=O)O)CC[C@]3(C)[C@H](CC[C@@H]4[C@@]5(C)CC[C@H](OC(=O)C(C)(C)CC(=O)O)C(C)(C)[C@@H]5CC[C@]43C)[C@@H]12 ; strain: NL4-3 ; method: p24 ; result: 0.035 µM
CC(C)(C)NC(=O)[C@@H]1CN(Cc2cccnc2)CCN1C[C@H](C[C@@H](Cc1ccccc1)C(=O)N[C@H]1c2ccccc2C[C@H]1O)OC(=O)COc1ccc(C[C@H](N)C(=O)O)cc1 ; strain: IIIB ; method: cytopathic effect / MTT ; result: 0.08 µM
COc1ccc(-c2nnc3sc(C(CC(C)C)N4C(=O)c5ccccc5C4=O)nn23)cc1 ; strain: NNRTI-resistant N119 ; changes: RT-Y181C ; result: >100 µM
C=C(C)[C@@H]1CC[C@]2(C(=O)N[C@H](CC(C)C)C(=O)O)CC[C@]3(C)[C@H](CC[C@@H]4[C@@]5(C)CC[C@H](OC(=O)CC(C)(C)C(=O)O)C(C)(C)[C@@H]5CC[C@]43C)[C@@H]12 ; strain: NL4-3 ; method: p24 ; result: 0.02 µM
CC1([C@@H]2CC[C@]3(NC[C@H](CO[Si](C)(C)C(C)(C)C)N4CCS(=O)(=O)CC4)CC[C@]4(C)[C@H](CC[C@@H]5[C@@]6(C)CC[C@H](OC(=O)[C@H]7C[C@@H](C(=O)O)C7(C)C)C(C)(C)[C@@H]6CC[C@]54C)[C@@H]23)CC1 ; strain: NL4-3 ; method: p24 / ELISA ; result: >0.05 µM
CC(C)[C@H](NC(=O)OCc1ccccc1)C(=O)N[C@@H](Cc1ccccc1)[C@@H](O)[C@@H](NCc1ccccc1)C(=O)N[C@H](C(=O)NCc1nc2ccccc2[nH]1)C(C)C ; strain: IIIB ; method: cytopathic effect ; result: 0.14 µM
Cc1ccc(-c2nnc3sc(CN)nn23)cc1 ; strain: NNRTI-resistant N119 ; changes: RT-Y181C ; result: >100 µM
CC(C)(C)NC(=O)[C@@H]1CN(Cc2cccnc2)CCN1C[C@@H](O)C[C@@H](Cc1ccccc1)C(=O)N[C@H]1c2ccccc2C[C@H]1OC(=O)CCCCOc1ccc(C[C@H](NC(=O)OC(C)(C)C)C(=O)O)cc1 ; strain: IIIB ; method: cytopathic effect / MTT ; result: 0.325 µM
Cc1c(C(C)c2c(F)cccc2F)nc(N(C)C)[nH]c1=O ; changes: Y181C resistant ; method: MTT ; result: 0.7 µM
CC(C)=CCN1Cc2cc(Cl)cc3[nH]c(=O)n(c23)C[C@@H]1C ; strain: IIIB ; changes: RT-Y181C ; method: cytopathic effect / XTT ; result: 124 µM
CC(C)[C@H](NC(=O)CCc1nc2ccccc2[nH]1)C(=O)N[C@@H](Cc1ccccc1)[C@@H](O)[C@@H](NCc1ccccc1)C(=O)N[C@H](C(=O)NCc1ccccc1)C(C)C ; strain: IIIB ; method: MTT / p24 ; result: 0.0545 µM
Cc1ccc(-c2n[nH]c(=S)n2N)cc1 ; strain: NNRTI-resistant N119 ; changes: RT-Y181C ; result: >100 µM
Cc1c(O)cccc1C(=O)N[C@@H](CSc1ccccc1)[C@@H](CN1C[C@H]2CCCC[C@H]2C[C@H]1C(=O)NC(C)(C)C)OC(=O)CCCCOc1ccc(C[C@H](NC(=O)OC(C)(C)C)C(=O)O)cc1 ; strain: IIIB ; method: cytopathic effect / MTT ; result: 2.05 µM
C=C(C)[C@@H]1CC[C@]2(C(=O)N[C@@H](CC(C)C)C(=O)O)CC[C@]3(C)[C@H](CC[C@@H]4[C@@]5(C)CC[C@H](OC(=O)C(C)(C)CC(=O)O)C(C)(C)[C@@H]5CC[C@]43C)[C@@H]12 ; strain: NL4-3 ; method: p24 ; result: 0.008 µM
Cc1cc(C)cc(Nn2cnc(C)c2-c2ccccc2)c1 ; strain: NL4-3 ; method: cytopathic effect / MTT ; result: 10.99 µM
COc1ccc(-c2nnc(SN3CCOCC3)n2N)cc1 ; strain: NNRTI-resistant N119 ; changes: RT-Y181C ; result: >100 µM
CC1([C@@H]2CC[C@]3(NCC(C)(C)N4CCS(=O)(=O)CC4)CC[C@]4(C)[C@H](CC[C@@H]5[C@@]6(C)CC[C@H](OC(=O)[C@H]7C[C@@H](C(=O)O)C7(C)C)C(C)(C)[C@@H]6CC[C@]54C)[C@@H]23)CC1 ; strain: NL4-3 ; changes: V7A ; method: p24 / ELISA ; result: >0.1 µM
Cc1[nH]c(=S)n(Nc2ccccc2Cl)c1-c1ccccc1 ; strain: IIIB ; method: cytopathic effect / MTT ; result: >162 µM
CCCCCCCC/C=C\CCCCCCCC(=O)OCC(COC(=O)CCCCCCC/C=C\CCCCCCCC)OC(=O)CCC(=O)O[C@@H](C[C@@H](Cc1ccccc1)C(=O)N[C@H]1c2ccccc2C[C@H]1OC(=O)CCC(=O)OC(COC(=O)CCCCCCC/C=C\CCCCCCCC)COC(=O)CCCCCCC/C=C\CCCCCCCC)CN1CCN(Cc2cccnc2)C[C@H]1C(=O)NC(C)(C)C ; strain: IIIB ; method: cytopathic effect / MTT ; result: >10 µM
Cc1ncn(Nc2cccc(Cl)c2)c1-c1ccccc1 ; strain: NL4-3 ; method: cytopathic effect / MTT ; result: 1.9 µM
CC(C)(C)NC(=O)[C@@H]1C[C@@H]2CCCC[C@@H]2CN1C[C@@H](OC(=O)NCCCCOc1ccc(C[C@H](N)C(=O)O)cc1)[C@H](Cc1ccccc1)NC(=O)[C@H](CC(N)=O)NC(=O)c1ccc2ccccc2n1 ; strain: IIIB ; method: cytopathic effect / MTT ; result: 6 µM
C=C(C)[C@@H]1CC[C@]2(C(=O)NCCCCCCCCCCC(=O)O)CC[C@]3(C)[C@H](CC[C@@H]4[C@@]5(C)CC[C@H](OC(=O)CC(C)(C)C(=O)O)C(C)(C)[C@@H]5CC[C@]43C)[C@@H]12 ; strain: NL4-3 ; method: p24 ; result: 0.012 µM
CC1(C)[C@@H](CCO)C[C@H]1n1nnc2c(=O)[nH]c(N)nc21 ; method: cytopathic effect ; result: >250 µg/mL
C=C(C)[C@@H]1CC[C@]2(C(=O)NCCCCCCCC(=O)O)CC[C@]3(C)[C@H](CC[C@@H]4[C@@]5(C)CC[C@H](OC(=O)CC(C)(C)C(=O)O)C(C)(C)[C@@H]5CC[C@]43C)[C@@H]12 ; strain: NL4-3 ; method: p24 ; result: 0.077 µM
COP(=O)(c1cc(C)cc(CCC#N)c1)c1c(C(N)=O)[nH]c2ccc(Cl)cc12 ; strain: IIIB ; changes: K103N/Y181C ; method: cytopathic effect ; result: 0.0091 µM
Cc1c(OC(=O)CCCCOc2ccc(C[C@H](NC(=O)OC(C)(C)C)C(=O)O)cc2)cccc1C(=O)N[C@@H](CSc1ccccc1)[C@H](O)CN1C[C@H]2CCCC[C@H]2C[C@H]1C(=O)NC(C)(C)C ; strain: IIIB ; method: cytopathic effect / MTT ; result: 0.116 µM
CCc1ncn(Nc2cccc(C)c2)c1-c1ccccc1 ; strain: NL4-3 ; method: cytopathic effect / MTT ; result: >27.87 µM
CC1(C)[C@@H](CCO)C[C@H]1n1nnc2c(Cl)nc(N)nc21 ; method: cytopathic effect ; result: >200 µg/mL
CCOc1c(Cl)cc(F)c(CCNC(=S)Nc2ccc(Br)cn2)c1Cl ; strain: IIIB ; changes: RT-Y181C ; method: cytopathic effect / XTT ; result: 0.16 µM
Cc1[nH]c(=S)n(Nc2cccc(Br)c2)c1-c1ccccc1 ; strain: SO561945 (RT K103N Y181C) ; changes: RT-K103N Y181C ; method: cytopathic effect / MTT ; result: 5.77 µM
Cc1c(OC(=O)CCCCOc2ccc(C[C@H](N)C(=O)O)cc2)cccc1C(=O)N[C@@H](CSc1ccccc1)[C@H](O)CN1C[C@H]2CCCC[C@H]2C[C@H]1C(=O)NC(C)(C)C ; strain: IIIB ; method: cytopathic effect / MTT ; result: 0.193 µM
C=C(C)[C@@H]1CC[C@]2(NC[C@H]([C@@H](C)O)N3CCS(=O)(=O)CC3)CC[C@]3(C)[C@H](CC[C@@H]4[C@@]5(C)CC[C@H](OC(=O)C6CC(C(=O)O)C6(C)C)C(C)(C)[C@@H]5CC[C@]43C)[C@@H]12 ; strain: NL4-3 ; changes: V7A ; method: p24 / ELISA ; result: <0.05 µM
C=C(C)[C@@H]1CC[C@]2(C(=O)NCCCCCCCC(=O)N[C@@H](CC(C)C)[C@H](O)CC(=O)O)CC[C@]3(C)[C@H](CC[C@@H]4[C@@]5(C)CC[C@H](O)C(C)(C)[C@@H]5CC[C@]43C)[C@@H]12 ; strain: NL4-3 ; method: p24 ; result: 0.053 µM
C[C@@H](O)[C@@H](CN[C@]12CC[C@@H](C3(C)CC3)[C@@H]1[C@H]1CC[C@@H]3[C@@]4(C)CC[C@H](OC(=O)[C@H]5C[C@@H](C(=O)O)C5(C)C)C(C)(C)[C@@H]4CC[C@@]3(C)[C@]1(C)CC2)N1CCS(=O)(=O)CC1 ; strain: NL4-3 ; changes: V7A ; method: p24 / ELISA ; result: <0.05 µM
CC1(C)[C@@H](CCO)C[C@H]1n1cnc2c(=O)[nH]cnc21 ; method: cytopathic effect ; result: >100 µg/mL
Cc1ncn(Nc2cccc(Cl)c2)c1-c1cccc(C#N)c1 ; strain: SO561945 (RT K103N Y181C) ; changes: RT-K103N Y181C ; method: cytopathic effect / MTT ; result: 22.57 µM
O=c1[nH]cnc2c1ncn2[C@@H]1O[C@H](CO)[C@@H](F)[C@H]1O ; result: >500 µM
CC(C)c1c(Cc2ccccc2)n(COCc2ccccc2)c(=O)[nH]c1=O ; strain: A17 ; changes: K103N ; method: p24 / ELISA ; result: >10 µM
CC(C)S(=O)(=O)N1CCN([C@@H](C)CN[C@]23CC[C@@H](C4(C)CC4)[C@@H]2[C@H]2CC[C@@H]4[C@@]5(C)CC[C@H](OC(=O)[C@H]6C[C@@H](C(=O)O)C6(C)C)C(C)(C)[C@@H]5CC[C@@]4(C)[C@]2(C)CC3)CC1 ; strain: NL4-3 ; changes: V7A ; method: p24 / ELISA ; result: <0.05 µM
CC(C)[C@H](NC(=O)OCc1ccccc1)C(=O)N[C@@H](Cc1ccccc1)[C@@H](O)[C@@H](NCc1ccc(Br)cc1)C(=O)N[C@H](C(=O)NCc1nc2ccccc2[nH]1)C(C)C ; strain: IIIB ; method: MTT / p24 ; result: 0.0203 µM
CC(C)[C@@H](CN[C@]12CC[C@@H](C3(C)CC3)[C@@H]1[C@H]1CC[C@@H]3[C@@]4(C)CC[C@H](OC(=O)[C@H]5C[C@@H](C(=O)O)C5(C)C)C(C)(C)[C@@H]4CC[C@@]3(C)[C@]1(C)CC2)N1CCS(=O)(=O)CC1 ; strain: NL4-3 ; method: p24 / ELISA ; result: 0.01001–0.05 µM
C=C(C)[C@@H]1CC[C@]2(C(=O)NCCCCCCCC(=O)N[C@@H](CC(C)C)[C@H](O)CC(=O)O)CC[C@]3(C)[C@H](CC[C@@H]4[C@@]5(C)CC[C@H](OC(=O)CC(C)(C)C(=O)O)C(C)(C)[C@@H]5CC[C@]43C)[C@@H]12 ; strain: NL4-3 ; method: p24 ; result: 0.096 µM
Nc1nc2c(ncn2[C@@H]2C[C@@H](F)[C@H](CO)O2)c(=O)[nH]1 ; method: cytopathic effect / MTT ; result: >100 µM
CC(C)S(=O)(=O)N1CCN([C@H](CN[C@]23CC[C@@H](C4(C)CC4)[C@@H]2[C@H]2CC[C@@H]4[C@@]5(C)CC[C@H](OC(=O)[C@H]6C[C@@H](C(=O)O)C6(C)C)C(C)(C)[C@@H]5CC[C@@]4(C)[C@]2(C)CC3)[C@@H](C)O)CC1 ; strain: NL4-3 ; changes: V7A ; method: p24 / ELISA ; result: <0.05 µM
Cc1ccc(Nn2c(-c3ccccc3)c(C)[nH]c2=S)cc1Cl ; strain: IIIB ; method: cytopathic effect / MTT ; result: >44.29 µM
C=C(C)[C@@H]1CC[C@]2(NC[C@H]([C@@H](C)O)N3CCS(=O)(=O)CC3)CC[C@]3(C)[C@H](CC[C@@H]4[C@@]5(C)CC[C@H](OC(=O)[C@H]6C[C@@H](C(=O)O)C6(C)C)C(C)(C)[C@@H]5CC[C@]43C)[C@@H]12 ; strain: NL4-3 ; changes: V7A ; method: p24 / ELISA ; result: <0.05 µM
Cc1cn([C@@H]2O[C@H](CO)[C@@H](F)[C@H]2O)c(=O)[nH]c1=O ; result: >500 µM
COc1ccc(-c2nnc(S(=O)(=O)[C@@H]3O[C@H](COC(C)=O)[C@@H](OC(C)=O)[C@H](OC(C)=O)[C@H]3OC(C)=O)n2N)cc1 ; strain: IIIB ; result: >100 µM
CC(=O)N1C2CCC(C2)N2C(=O)c3c(O)c(=O)c(C(=O)NCc4ccc(F)cc4F)cn3CC12 ; strain: NL4-3 ; method: GFP ; conditions: 0% human serum ; result: 0.002 µM

For reference, 4 entries again:

smiles | strain | changes | method | conditions | result
C=C(C)[C@@H]1CC[C@]2(C(=O)N[C@H](CC(C)C)C(=O)O)CC[C@]3(C)[C@H](CC[C@@H]4[C@@]5(C)CC[C@H](OC(=O)CC(C)(C)C(=O)O)C(C)(C)[C@@H]5CC[C@]43C)[C@@H]12 | NL4-3 | - | p24 | - | 0.02 µM
C=C(C)[C@@H]1CC[C@]2(C(=O)NCCCCCCCC(=O)N[C@@H](CC(C)C)[C@H](O)CC(=O)O)CC[C@]3(C)[C@H](CC[C@@H]4[C@@]5(C)CC[C@H](O)C(C)(C)[C@@H]5CC[C@]43C)[C@@H]12 | NL4-3 | - | p24 | - | 0.053 µM
Cc1cc(C)cc(Nn2cnc(C)c2-c2ccccc2)c1 | NL4-3 | - | cytopathic effect / MTT | - | 10.99 µM
C=C(C)[C@@H]1CC[C@]2(C(=O)NCCCCCCCCCCC(=O)O)CC[C@]3(C)[C@H](CC[C@@H]4[C@@]5(C)CC[C@H](OC(=O)CC(C)(C)C(=O)O)C(C)(C)[C@@H]5CC[C@]43C)[C@@H]12 | NL4-3 | - | p24 | - | 0.012 µM

ECn: concentration that inhibits the pathogen or its effect by n%. Conditions beyond the fields shown may differ between rows. An empty or dashed field is not shown.